One data set has as its system S. aureus. Description: Growth inhibition (broth microdilution), S. aureus. In kind it is cell-based, Staphylococcus aureus. The settings on record: for HI: ratio of HD50 to MIC50, S. aureus; for S. aureus HI: Table 3, ratio of HD50 to IC50. The text has this: (§1) The antimicrobial activity of each peptide can be tested following standard broth microdilution protocols recommended by the National Committee for Clinical Laboratory Standard. Multidrug-resistant Staphylococcus aureus strain (ATCC BAA-44) and Acinetobacter baumannii (ATCC BAA-747) can be used in this study, as well as Ampicillin- and streptomycin-resistant Escherichia coli (D31), obtained from the E. coli Genetic Resource Center (Yale University, New Haven, Conn.). Bacteria can be grown overnight in Tryptic Soy broth at 37° C. Then, cultures are diluted in Mueller-Hinton broth to a final concentration range of 2×10^4 to 2×10^5 CFU/ml. Bacterial inocula are incubated at 37° C. in phosphate-buffered saline (PBS) buffer (pH7.2) with various dilutions of peptide stock. The 18-hour absorbance data are used to calculate the percentage of inhibition for each sample by comparison with the absorbance of cultures without sample. Bacterial growth is measured by turbidity as optical density at 600 nm (OD600), using a Genesys 5 Spectrophotometer (Rochester, N.Y.) or equivalent instrument. All assays can be carried out in triplicate. The concentration of peptide that results in 50% inhibition of growth is recorded as the IC50. In addition the concentration of agents needed can be monitored to reduce the bacterial population by three logs, IC99.9. This is a more rigorous indicator of the amount needed to prevent an infection.
(§2) The antimicrobial activity of each triazine compound was tested by following standard broth microdilution protocols recommended by the National Committee for Clinical Laboratory Standard. All compounds were initially tested against Bacillus subtilis (ATCC 6633; Rockville, Md.). Bacteria were grown in Mueller Hinton Broth (MHB) at 37° C. for overnight. Then, cultures were diluted in MHB to a final concentration of 2×10^4 to 2×10^5 CFU/mL. Bacterial inocula were incubated at 37° C. in PBS buffer (pH 7.2) with varying concentrations of 2-fold dilution of triazine stocks. The 18-hour absorbance data were used to calculate the percent inhibition for each sample by comparing with the absorbance of cultures without triazine compounds. Bacterial growth was measured by turbidity as optical density at 600 nm using a Genesys 5 Spectrophotometer (Rochester, N.Y.).
In general terms: Broth dilution looks for growth in wells or tubes with falling amounts of substance.

Another data set concerns A. baumannii. Description: Growth inhibition (broth microdilution), A. baumannii. The settings on record: ratio of HD50 to MIC50, A. baumannii. Format: cell-based, Acinetobacter baumannii.
Source text: as §1, §2

The test system of another data set is B. subtilis. The experiment in a line: Growth inhibition (broth microdilution), B. subtilis. In kind it is cell-based, Bacillus subtilis. The settings on record: Table 3; ratio of HD50 to IC50. The method, then:
as §2

Here are results for seven compounds from patent US9273015B2, “s-Triazine compounds, pharmaceutical compositions and methods of using the same” (NEW YORK UNIVERSITY, priority 2010, dated 2016).

Structures are written as SMILES.

As to `CCCCN(CCCC)CCCNc1nc(NCc2ccccc2)nc(Nc2cccc3ccccc23)n1` [TN2], the HI in the data set on S. aureus amounted to 69.5; with A. baumannii, 65.7.
Consider `NCCCCNc1nc(NCc2ccccc2)nc(Nc2cccc3ccccc23)n1` [TN3], for which the HI turned out to be 18 with S. aureus and 17.8 in the data set on A. baumannii.
On to `CCCCN(CCCC)CCCNc1nc(NCc2ccccc2)nc(NCc2cccc3ccccc23)n1` [TN4], for which the HI with S. aureus was 3.25; in the data set on A. baumannii, 0.73.
As for `NCCCCNc1nc(NCc2ccccc2)nc(NCc2cccc3ccccc23)n1` [TN5], the HI is listed as 28.39 in the data set on S. aureus and 55.83 in the data set with A. baumannii.
As to `CCCCN(CCCC)CCCNc1nc(NCCc2c[nH]c3ccccc23)nc(NCCc2c[nH]c3ccccc23)n1` [TZ-WK(Bu)2W], the “S. aureus HI” value in the data set on S. aureus is listed as 50.8. Further, the “B. subtilis HI” value with B. subtilis is recorded as 91.5.
As for `NCCCNc1nc(NCCc2c[nH]c3ccccc23)nc(NCCc2c[nH]c3ccccc23)n1` [TZ-WKW], the “S. aureus HI” value in the data set on S. aureus is 19.1. Moreover, the “B. subtilis HI” value with B. subtilis was 43.3.
The like results for `N=C(N)NCCNc1nc(NCCc2c[nH]c3ccccc23)nc(NCCc2c[nH]c3ccccc23)n1` [TZ-WRW] were, in that order, 13.2 and 15.
